The values below are quoted from earlier work in patent publication US8048918B2, “Treatment of hyperproliferative diseases” (Vampex Limited, priority 2000, dated 2011).

The test system of the series is retinol dehydrogenase. The conditions noted are these: Boerman and Napoli, Biochemistry 34:7027-37, 1995; cited from earlier work.

Broadly, the IC50 is the point on the concentration scale where inhibition reaches its midpoint. With `O=[As]c1ccccc1` (stereo not shown), the 50% inhibitory concentration (IC50) is 5 µM.
